Measured values from several laboratories, pooled; numbers as filed in NIAID ChemDB.

Common to all: cytotoxicity tests; cells: HEL; read-out: CC50

CCn is the concentration with n% toxicity to the cells. Rows are shuffled and stem from different studies.

{"SMILES": "CC1(C)[C@@H](CO)CC[C@@]1(C)Cn1nnc2c(=O)[nH]cnc21", "result": ">50 µg/mL"}
{"SMILES": "Nc1nc2c(ncn2CC[C@H](O)CCO)c(=O)[nH]1", "result": ">400 µg/mL"}
{"SMILES": "C[C@@H](Cn1cnc2c(=O)[nH]c(N)nc21)OCP(=O)(O)O", "result": "222 µM"}
{"SMILES": "Cn1cc(C(=O)O)c(=O)c2cc(N)c(N3CCN(c4cnccn4)CC3)cc21", "result": "5.4 µg/mL"}
{"SMILES": "Cc1cc(-c2cccc(O)c2)cn2c(CSCCc3ccccc3)cnc12", "result": "50 µg/mL"}
{"SMILES": "CC1(C)[C@@H](CO)CC[C@@]1(C)Cn1ccc(=O)[nH]c1=O", "result": ">50 µg/mL"}
{"SMILES": "COC(=O)[C@]1(C)CCC[C@]2(C)c3ccc4nc(-c5ccccc5)c(-c5ccccc5)nc4c3CCC12", "result": ">50 µg/mL"}
{"SMILES": "CCCCCCCc1cc2cn([C@H]3C[C@H](O)[C@@H](CO)O3)c(=O)nc2o1", "result": ">50 µM"}
{"SMILES": "CCCOc1ccc(-c2cc3cn([C@H]4C[C@H](O)[C@@H](CO)O4)c(=O)nc3o2)cc1", "result": ">200 µM"}
{"SMILES": "COc1cc([C@@H]2c3cc4c(cc3[C@@H](Nc3ccc(C#N)cc3)[C@H]3COC(=O)[C@]23F)OCO4)cc(OC)c1O", "result": "8.43 µM"}
{"SMILES": "Cc1cn(C2OC(CO)C(O)C2(F)F)c(=O)[nH]c1=O", "result": "100 µM"}
{"SMILES": "COc1ccc(CS(=O)(=O)c2cccc[n+]2[O-])cc1", "result": "31 µg/mL"}
{"SMILES": "CCCCCCc1cc2cn([C@H]3C[C@H](O)[C@@H](CO)O3)c(=O)nc2o1", "result": ">200 µM"}
{"SMILES": "O=C1c2ccccc2N(Cc2ccccc2)S(=O)(=O)N1COCc1ccccc1", "result": "≥40 µg/mL"}
{"SMILES": "Cc1cc(C)c(CS(=O)c2cccc[n+]2[O-])c(C)c1", "result": "12 µg/mL"}
{"SMILES": "CSCC1=C[C@@H](n2cnc3c(N)ncnc32)[C@H](O)[C@@H]1O", "result": "9 µg/mL"}
{"SMILES": "CC(C)(C)c1cn([C@H]2C[C@H](O)[C@@H](CO)O2)c(=O)[nH]c1=O", "result": ">200 µM"}
{"SMILES": "O=c1[nH]c(=O)n([C@@H]2C[C@H](O)[C@@H](CO)O2)cc1-c1ccco1", "result": "110 µg/mL"}
{"SMILES": "CCCCCCCCCCc1cc2cn([C@H]3C[C@H](O)[C@@H](CO)O3)c(=O)nc2s1", "result": "54 µM"}
{"SMILES": "COc1cc([C@@H]2c3cc4c(cc3[C@@H](O)[C@H]3COC(=O)[C@]23F)OCO4)cc(OC)c1OC", "result": "5 µM"}
{"SMILES": "Cn1ccnc1-c1cn([C@H]2C[C@H](O)[C@@H](CO)O2)c(=O)[nH]c1=O", "result": ">200 µg/mL"}
{"SMILES": "Nc1ncnc2c1ncn2CC[C@H](O)CCO", "result": ">400 µg/mL"}
{"SMILES": "CC(=O)OCCOCN1c2ccccc2C(=O)N(Cc2ccccc2)S1(=O)=O", "result": "100 µg/mL"}
{"SMILES": "CCCCCCCCCc1cc2cn([C@H]3C[C@H](O)[C@@H](CO)O3)c(=O)nc2o1", "result": ">200 µM"}
{"SMILES": "COC(=O)C(c1cc(C)ccc1C)S(=O)(=O)c1cccc[n+]1[O-]", "result": "27 µg/mL"}
{"SMILES": "CO[C@H](CO)[C@@H](O)CCn1ccc(N)nc1=O", "result": ">400 µg/mL"}
{"SMILES": "O=c1[nH]c(=O)n([C@H]2C[C@H](O)[C@@H](CO)S2)cc1C1CCCCC1", "result": ">150 µM"}
{"SMILES": "Nc1ncnc2c1ncn2[C@@H]1C=C(CO)[C@@H](O)[C@H]1O", "result": "21.48 µg/mL"}
{"SMILES": "Cc1ccc[n+]([O-])c1S(=O)(=O)C(C)c1ccccc1Cl", "result": "38 µg/mL"}
{"SMILES": "COC(=O)[C@]1(C)CCC[C@]2(C)c3ccc4nc5c(nc4c3CCC12)CCCC5", "result": "13 µg/mL"}
{"SMILES": "Nc1nc2c(ncn2C[C@H](CO)OCP(=O)(O)O)c(=O)[nH]1", "result": "17 µM"}
{"SMILES": "Cc1cccc(CS(=O)c2cccc[n+]2[O-])c1", "result": "37 µg/mL"}
{"SMILES": "CCCCCCCCc1cc2cn([C@H]3C[C@H](O)[C@@H](CO)O3)c(=O)nc2[nH]1", "result": ">50 µM"}
{"SMILES": "CCCc1cn([C@H]2C[C@H](O)[C@@H](CO)O2)c(=O)[nH]c1=O", "result": ">200 µM"}
{"SMILES": "CCCCCCc1cc2cn([C@H]3CC[C@@H](CO)O3)c(=O)nc2o1", "result": "143 µM"}
{"SMILES": "Cc1cc(-c2ccsc2)c2ncc(CSCCc3ccccc3)n2c1", "result": ">50 µg/mL"}
{"SMILES": "CCOc1ccc(-c2cc3cn([C@H]4C[C@H](O)[C@@H](CO)O4)c(=O)nc3o2)cc1", "result": ">200 µM"}
{"SMILES": "Cc1c(S(=O)(=O)c2ccc(Cl)cc2)c(NC(=O)C(F)(F)F)n(Cc2ccc(Cl)cc2)c1C", "result": "50 µg/mL"}
{"SMILES": "Nc1cc2c(=O)c(C(=O)O)cn(C3CC3)c2cc1N1CCN(c2nc3ccccc3s2)CC1", "result": "0.009 µg/mL"}
{"SMILES": "COC(=O)[C@]1(C)CCC[C@]2(C)c3cc(Br)c4nc(C(F)(F)F)[nH]c4c3CCC12", "result": "0.7 µg/mL"}
{"SMILES": "CCCCCCCCCc1cc2cn([C@H]3C[C@H](O)[C@@H](CO)O3)c(=O)nc2o1", "result": ">200 µM"}
{"SMILES": "O=S(=O)(Cc1ccccc1Oc1ccccc1)c1cccc[n+]1[O-]", "result": "10 µg/mL"}
{"SMILES": "C#C[C@@H](O)C1=C[C@@H](n2cnc3c(N)ncnc32)[C@H](O)[C@@H]1O", "result": ">50 µg/mL"}
{"SMILES": "COC(=O)C(C)(C)NP(=O)(OC[C@H]1O[C@@H](n2cc(/C=C/Br)c(=O)[nH]c2=O)C[C@@H]1O)Oc1ccccc1", "result": ">200 µM"}
{"SMILES": "Cc1ccc(C)c(CSc2ncccc2O)c1", "result": "16 µg/mL"}
{"SMILES": "CO[C@H](CO)[C@@H](O)CCn1cnc2c(=O)[nH]c(N)nc21", "result": ">400 µg/mL"}
{"SMILES": "Cn1cc(C(=O)O)c(=O)c2cc(N)c(N3CCN(c4cccc(C(F)(F)F)c4)CC3)cc21", "result": "1.8 µg/mL"}
{"SMILES": "Nc1ncnc2c1ncn2[C@@H]1C=C(CO)[C@@H](O)[C@H]1O", "result": "16 µg/mL"}
{"SMILES": "Nc1ncnc2c1ncn2[C@@H]1C=C(CO)[C@@H](O)[C@H]1O", "result": "20 µg/mL"}
{"SMILES": "Nc1ncc2ncn(C[C@H](CF)OCP(=O)(O)O)c2n1", "result": ">600 µM"}
{"SMILES": "O=C1c2ccccc2NS(=O)(=O)N1Cc1ccccc1", "result": ">50 µg/mL"}
{"SMILES": "COC(=O)[C@H](C)NP(=O)(OC[C@H]1O[C@@H](n2cc(/C=C/Br)c(=O)[nH]c2=O)C[C@@H]1O)Oc1ccc(Cl)cc1", "result": "74 µM"}
{"SMILES": "O=[N+]([O-])c1cc(CS(=O)(=O)c2cccc[n+]2[O-])ccc1Cl", "result": "4.3 µg/mL"}
{"SMILES": "O=c1[nH]c(=O)n([C@H]2C[C@H](O)[C@@H](CO)O2)cc1C1CC1", "result": ">200 µM"}
{"SMILES": "Cc1ccc(C)c(C(Sc2cccc[n+]2[O-])c2ccccc2)c1", "result": ">20 µg/mL"}
{"SMILES": "COc1cc([C@@H]2c3cc4c(cc3[C@@H](Nc3ccc([N+](=O)[O-])cc3)[C@H]3COC(=O)[C@]23F)OCO4)cc(OC)c1O", "result": "6.09 µM"}
{"SMILES": "Nc1ncc2ncn(C[C@@H](CO)OCP(=O)(O)O)c2n1", "result": ">600 µM"}
{"SMILES": "CCCCCCCCc1cc2cn([C@H]3C[C@H](O)[C@@H](CO)O3)c(=O)nc2o1", "result": "≥50 µM"}
{"SMILES": "NC1=NS(=O)(=O)N(Cc2ccccc2)c2nc[nH]c21", "result": ">50 µg/mL"}
{"SMILES": "CC(C)CS[C@H]1C[C@@H](n2cnc3c(N)ncnc32)[C@H](O)[C@@H]1O", "result": ">200 µg/mL"}
{"SMILES": "CC1(C)[C@@H](CO)CC[C@@]1(C)Cn1cnc2c(Cl)ncnc21", "result": ">50 µg/mL"}
{"SMILES": "C[C@H]1O[C@@H](c2n[nH]c(C(N)=O)c2O)[C@H](O)[C@@H]1O", "result": ">50 µg/mL"}
{"SMILES": "Cc1ccc(C)c(C(C)S(=O)(=O)c2cc(C)cc[n+]2[O-])c1", "result": "25 µg/mL"}
{"SMILES": "Nc1ncnc2c1ncn2[C@@H]1C=C(CO)[C@@H](O)[C@H]1O", "result": ">20 µg/mL"}
{"SMILES": "CCCCCCCCCCCC(Sc1cccc[n+]1[O-])c1cc(C)ccc1C", "result": ">20 µg/mL"}
{"SMILES": "CC(C)(C)c1cn([C@H]2C[C@H](O)[C@@H](CO)S2)c(=O)[nH]c1=O", "result": ">150 µM"}
{"SMILES": "CCCC(Sc1cccc[n+]1[O-])c1cc(C)ccc1C", "result": "1.3 µg/mL"}
{"SMILES": "N#CC1C(c2ccc(Cl)cc2)Nc2sccc2S1(=O)=O", "result": "35 µg/mL"}
{"SMILES": "CC[C@@H](O)C1=C[C@@H](n2cnc3c(N)ncnc32)[C@H](O)[C@@H]1O", "result": ">50 µg/mL"}
{"SMILES": "N#CC1C(c2ccc(Cl)cc2)Nc2ccccc2S1(=O)=O", "result": ">50 µg/mL"}
{"SMILES": "CC(=O)OCCOCN1c2nc(Cc3ccccc3)[nH]c2C(N)=NS1(=O)=O", "result": ">50 µg/mL"}
{"SMILES": "O=C1NS(=O)(=O)N(COCCO)c2ccccc21", "result": "112 µg/mL"}
{"SMILES": "Cc1ccc(C)c(CS(=O)c2ccc(Cl)c[n+]2[O-])c1", "result": "14 µg/mL"}
{"SMILES": "COC(=O)[C@]1(C)CCC[C@]2(C)c3cc(Br)c4[nH]ccc4c3CCC12", "result": "12.5 µg/mL"}
{"SMILES": "Cc1ccc(C)c(C(Cl)S(=O)(=O)c2cc(C)cc[n+]2[O-])c1", "result": ">100 µg/mL"}
{"SMILES": "O=c1[nH]c(=O)n([C@@H]2O[C@H](CO)[C@@H](O)[C@@H]2O)cc1-c1cccs1", "result": "200 µg/mL"}
{"SMILES": "Cc1ccc[n+]([O-])c1SCc1c(Cl)cccc1Cl", "result": "31 µg/mL"}
{"SMILES": "Cc1cc(-c2ccc(C#N)cc2)cn2c(CSCCc3ccccc3)cnc12", "result": "10.6 µg/mL"}
{"SMILES": "COc1ccc(CS(=O)(=O)c2cc(C(C)(C)C)cc[n+]2[O-])cc1", "result": "38 µg/mL"}
{"SMILES": "O=c1[nH]c(=O)n([C@@H]2C[C@H](O)[C@@H](CO)O2)cc1-c1cccs1", "result": "180 µg/mL"}
{"SMILES": "O=S(=O)(Cc1ccc(Cl)cc1Cl)c1cccc[n+]1[O-]", "result": "6.2 µg/mL"}
{"SMILES": "Cc1ccc(-c2cc3cn([C@H]4C[C@H](O)[C@@H](CO)O4)c(=O)nc3o2)cc1", "result": ">200 µM"}
{"SMILES": "O=S(=O)(Cc1ccc(Cl)c(Cl)c1)c1cccc[n+]1[O-]", "result": "2.9 µg/mL"}
{"SMILES": "CCCCCCCCCCCCc1cc2cn([C@H]3C[C@H](O)[C@@H](CO)O3)c(=O)nc2o1", "result": ">200 µM"}

For reference, 11 entries again:

SMILES	result
COc1cc([C@@H]2c3cc4c(cc3[C@@H](Nc3ccc(C#N)cc3)[C@H]3COC(=O)[C@]23F)OCO4)cc(OC)c1O	8.43 µM
CCCc1cn([C@H]2C[C@H](O)[C@@H](CO)O2)c(=O)[nH]c1=O	>200 µM
Cc1ccc[n+]([O-])c1SCc1c(Cl)cccc1Cl	31 µg/mL
N#CC1C(c2ccc(Cl)cc2)Nc2ccccc2S1(=O)=O	>50 µg/mL
COc1ccc(CS(=O)(=O)c2cc(C(C)(C)C)cc[n+]2[O-])cc1	38 µg/mL
O=S(=O)(Cc1ccc(Cl)c(Cl)c1)c1cccc[n+]1[O-]	2.9 µg/mL
Nc1ncnc2c1ncn2CC[C@H](O)CCO	>400 µg/mL
Cc1ccc(C)c(CS(=O)c2ccc(Cl)c[n+]2[O-])c1	14 µg/mL
CCCCCCCCCc1cc2cn([C@H]3C[C@H](O)[C@@H](CO)O3)c(=O)nc2o1	>200 µM
COC(=O)[C@]1(C)CCC[C@]2(C)c3cc(Br)c4nc(C(F)(F)F)[nH]c4c3CCC12	0.7 µg/mL
CCCCCCCCCCc1cc2cn([C@H]3C[C@H](O)[C@@H](CO)O3)c(=O)nc2s1	54 µM